Source: patent US6307014A (priority 1998, dated 2001)

System: young mice
Assay: Neurotoxic activity: intracerebral injection in young mice, behavior patterns
Settings: even at high doses

## Gla Cys Cys Gla Asp Gly BrW Cys Cys Thr Ala Ala OHP
  death of animals: did not cause death in any of the animals tested
